Laboratory results from ChEMBL document CHEMBL1671701, “Discovery of potent small-molecule inhibitors of multidrug-resistant Plasmodium falciparum using a novel miniaturized high-throughput luciferase-based assay” (Antimicrob Agents Chemother, 2010).
This is a selection: effects in other tests are not listed, and their absence says nothing.

System: Plasmodium falciparum
Assay: Antiplasmodial activity against Plasmodium falciparum 3D7 infected in RBCs by firefly luciferase reporter gene assay

Question: `COc1cc(NC2CCN(Cc3ccccc3)CC2)cc(OC)c1` was tested. Which IC50 did it give?
Answer: The IC50 was 440 nM.

Question: `COc1ccc(NC2CCN(CCc3ccccc3)CC2)cc1OC` was tested. Which IC50 did it give?
Answer: The IC50 was 1300 nM.

Question: For `Clc1cccc(NC2CCN(CCc3ccccc3)CC2)c1`, which IC50 is on record?
Answer: Its IC50 is 520 nM.

Question: Which IC50 does the source give for `Fc1cccc(NC2CCN(CCc3ccccc3)CC2)c1` here?
Answer: The IC50 was 920 nM.

Question: Which IC50 does the source give for `COc1cc(NC2CCN(CCc3ccccc3)CC2)cc(OC)c1` here?
Answer: Its IC50 is 1200 nM.

Question: How did the IC50 turn out when `Brc1cccc(NC2CCN(CCc3ccccc3)CC2)c1` was run?
Answer: The IC50 was 490 nM.
